# Experimental data as given in patent US20240175865A1, “IMPROVED PROCESSES FOR RATIONALLY-DESIGNING AND PRODUCING BIOMOLECULES” (priority 2020, published 2024).
# Experiments:
# Type in all cases: binding
# Conditions in all cases: 100 nM protein, pH 8.0, 20° C.
# [1] = biological target: Yersinia enterocolitica TogB variant K94C, MDCC conjugate (parent TogB SEQ ID NO: 2) (Yersinia enterocolitica, UniProt A0ACH1C7V4, K99C)
# [2] = biological target: Yersinia enterocolitica TogB variant A279C, MDCC conjugate (parent TogB SEQ ID NO: 2) (Yersinia enterocolitica, UniProt A0ACH1C7V4, A284C)
# [3] = biological target: Yersinia enterocolitica TogB variant F242C, MDCC conjugate (parent TogB SEQ ID NO: 2) (Yersinia enterocolitica, UniProt A0ACH1C7V4, F247C)
# [4] = biological target: Yersinia enterocolitica TogB variant K357C, MDCC conjugate (parent TogB SEQ ID NO: 2) (Yersinia enterocolitica, UniProt A0ACH1C7V4, K362C)
smiles,measurement,setting,value
"O=C(O)C1=C[C@H](O)[C@@H](O)[C@@H](O[C@@H]2[C@H](O)[C@@H](O)C(O)O[C@@H]2C(=O)O)O1 (stereo partly shown) [unsatdigalUA, 4,5-unsaturated digalacturonic acid]",Response (change in peak fluorescence intensity),[1]; 16 μM unsatdigalUA,N.C. (negligible change in fluorescence for a given condition (less than 10% change in fluorescence))
same,Response (percentage change in peak fluorescence intensity),[2]; 16 μM unsatdigalUA,−31%
same,Response (percentage change in peak fluorescence intensity),[3]; 16 μM unsatdigalUA,−14%
same,Response (percentage change in peak fluorescence intensity),[4]; 16 μM unsatdigalUA,−32%
"O=C(O)[C@H]1OC(O)[C@H](O)[C@@H](O)[C@H]1O (stereo partly shown) [galacturonic acid, Galacturonic acid]",Response (change in peak fluorescence intensity),[1]; 1710 μM galacturonic acid,N.C. (negligible change in fluorescence for a given condition (less than 10% change in fluorescence))
same,Response (change in peak fluorescence intensity),[2]; 1710 μM galacturonic acid,N.C. (negligible change in fluorescence for a given condition (less than 10% change in fluorescence))
same,Response (change in peak fluorescence intensity),[3]; 1710 μM galacturonic acid,N.C. (negligible change in fluorescence for a given condition (less than 10% change in fluorescence))
same,Response (change in peak fluorescence intensity),[4]; 1710 μM galacturonic acid,N.C. (negligible change in fluorescence for a given condition (less than 10% change in fluorescence))
"O=C(O)[C@H]1O[C@H](O[C@@H]2[C@H](O)[C@@H](O)C(O)O[C@@H]2C(=O)O)[C@H](O)[C@@H](O)[C@H]1O (stereo partly shown) [digalUA, digalacturonic acid]",Response (change in peak fluorescence intensity),[1]; 48 μM digalUA,N.C. (negligible change in fluorescence for a given condition (less than 10% change in fluorescence))
same,Response (percentage change in peak fluorescence intensity),[2]; 48 μM digalUA,−31%
same,Response (percentage change in peak fluorescence intensity),[3]; 48 μM digalUA,−10%
same,Response (percentage change in peak fluorescence intensity),[4]; 48 μM digalUA,−25%
"O=C(O)[C@H]1O[C@H](O[C@@H]2[C@H](O)[C@@H](O)[C@@H](O[C@@H]3[C@H](O)[C@@H](O)C(O)O[C@@H]3C(=O)O)O[C@@H]2C(=O)O)[C@H](O)[C@@H](O)[C@H]1O (stereo partly shown) [trigalUA, trigalacturonic acid]",Response (change in peak fluorescence intensity),[1]; 570 μM trigalUA,N.C. (negligible change in fluorescence for a given condition (less than 10% change in fluorescence))
same,Response (percentage change in peak fluorescence intensity),[2]; 570 μM trigalUA,−30%
same,Response (percentage change in peak fluorescence intensity),[3]; 570 μM trigalUA,−20%
same,Response (percentage change in peak fluorescence intensity),[4]; 570 μM trigalUA,−29%

# Like-named read-outs stand apart in the source and are kept apart here.
